Compound potency records, mixed from different reports. Data source: NIAID ChemDB in PubChem.

Shared fields: enzyme or target tests; organism: HIV-1; target: Integrase

Lines come from different laboratories, so protocols vary.

SMILES	read by	dose	measure	mutations	value
CC(C)(C)C(=O)Cc1c(C(=O)C(C)(C)C)c(=O)c(O)c2n1CCN(Cc1ccc(F)cc1)C2=O	ELISA	-	IC50	-	0.01–0.1 µM
O=C(/C=C(\O)C(=O)O)NCc1ccc(Cl)cc1	strand transfer	70 µM	inhibition	-	80%
O=C(/C=C/c1ccc(O)c(O)c1)OCCc1ccccc1N=C=S	3′ processing	-	fold resistance	C56S	7.67
O=C1c2c(O)c(=O)c(NS(=O)(=O)c3cccs3)cn2CCN1Cc1ccc(F)c(Cl)c1	ELISA	-	IC50	-	0.01–0.1 µM
O=C(/C=C(\O)C(=O)O)NCc1ccc(F)cc1	strand transfer	70 µM	inhibition	-	80%
Cn1ccc(CN2CCn3c(nc(C(=O)NCc4ccc(F)cc4)c(O)c3=O)C2(C)C)n1	ELISA	-	IC50	-	<10 µM
O=C(/C=C/c1ccc(O)c(O)c1)Oc1cccc2c(N=C=S)cccc12	3′ processing	-	fold resistance	C56S	10
Cc1cn(Cc2ccc(Cl)c(Cl)c2)c(=O)c2c(O)c(=O)ccn12	ELISA	-	IC50	-	<0.01 µM
Cc1cc(Cl)cc2c1S(=O)(=O)N=C(C(=O)c1ccc(Cl)c(Cl)c1)S2	3′ processing	-	fold resistance	INTG-C65S	0.22
O=C(/C=C/c1ccc(O)c(O)c1)OCCc1cccc(N=C=S)c1	3′ processing	-	fold resistance	C56S	7.67
Cc1cc2c(cc1Cl)SC(C(=O)c1ccc3ccccc3c1)=NS2(=O)=O	3′ processing	-	fold resistance	INTG-C65S	1.07
COCc1cc(=O)c(O)c2n1CCN(Cc1ccc(Cl)c(Cl)c1)C2=O	ELISA	-	IC50	-	0.01–0.1 µM
Cc1cc2c(cc1Cl)SC(C(=O)c1ccc(Cl)c(Cl)c1)=NS2(=O)=O	strand transfer	-	fold resistance	INTG-C65S	1.4
O=C(NCc1ccc(F)cc1)c1nc2n(c(=O)c1O)C(=O)N(Cc1ccccc1)CC2	ELISA	-	IC50	-	<10 µM
O=C(/C=C/c1ccc(O)c(O)c1)OCCc1ccccc1	3′ processing	-	fold resistance	C65S	2.2
Cn1nnnc1CN1CCn2c(nc(C(=O)NCc3ccc(F)cc3)c(O)c2=O)C1(C)C	ELISA	-	IC50	-	<10 µM
O=C(Nc1ccccc1)c1cn2ccn(Cc3cccc(Cl)c3)c(=O)c2c(O)c1=O	ELISA	-	IC50	-	0.01–0.1 µM
Cc1cc2c(cc1Cl)SC(C(=O)c1ccccc1)=NS2(=O)=O	strand transfer	-	fold resistance	INTG-C65S	7.5
COc1c(Cl)cccc1Cn1ccn2ccc(=O)c(O)c2c1=O	ELISA	-	IC50	-	0.01–0.1 µM
O=C(/C=C(\O)C(=O)O)NCc1ccc([N+](=O)[O-])cc1	strand transfer	-	IC50	-	<70 µM
Cc1cc(Cl)cc2c1S(=O)(=O)N=C(C(=O)c1ccc3ccccc3c1)S2	3′ processing	-	fold resistance	INTG-C65S	0.91
CC(C)(C)C(=O)c1cn2ccn(Cc3ccc(F)c(Cl)c3)c(=O)c2c(O)c1=O	ELISA	-	IC50	-	<0.01 µM

3 of the rows above, restated:

| SMILES | read by | dose | measure | mutations | value |
|---|---|---|---|---|---|
| Cc1cc(Cl)cc2c1S(=O)(=O)N=C(C(=O)c1ccc3ccccc3c1)S2 | 3′ processing | - | fold resistance | INTG-C65S | 0.91 |
| CC(C)(C)C(=O)Cc1c(C(=O)C(C)(C)C)c(=O)c(O)c2n1CCN(Cc1ccc(F)cc1)C2=O | ELISA | - | IC50 | - | 0.01–0.1 µM |
| COc1c(Cl)cccc1Cn1ccn2ccc(=O)c(O)c2c1=O | ELISA | - | IC50 | - | 0.01–0.1 µM |

Inhibition is in % at the dose shown (toxicity tests: loss of growth or viability). ICn: concentration for n% inhibition. Fold resistance: result on the changed form divided by that on wild type. a–b is a range or a potency band. An empty or dashed field is not shown.